In US20100203559A1:

Target: SNAP-25 cleavage product (lysate of Neuro-2a cells treated with 10 nM BoNT/A) (mouse (Neuro-2a cells)) (UniProt P60879)

Row | Substance | Signal/Noise Ratio (10 nM/0 nM)
1 | MC-6053 α-SNAP-25 mouse monoclonal antibody (Research & Diagnostic Antibodies) | 7.1
2 | MC-6050 α-SNAP-25 mouse monoclonal antibody (Research & Diagnostic Antibodies) | 5
3 | SP12 α-SNAP-25 mouse polyclonal antibodies (Santa Cruz Biotechnology) | 1
4 | SMI-81 α-SNAP-25 mouse monoclonal antibody (Sternberger Monoclonals Inc.) | 1.1 and 1 and 0.8
5 | C-18 α-SNAP-25 goat polyclonal antibodies (Santa Cruz Biotechnology) | 0.8 and 0.9
6 | H-50 α-SNAP-25 rabbit polyclonal antibodies (Santa Cruz Biotechnology) | 0.9 and 1
7 | N-19 α-SNAP-25 goat polyclonal antibodies (Santa Cruz Biotechnology) | 0.9 and 1.1

Several values for one entry are separate records, joined by “and”; a condition that tells them apart may be missing. Equal values may be shown once.
